Pooled drug test results. Numbers come from NIAID ChemDB, via PubChem.

All rows: toxicity to cultured cells; cell line: MT-4; endpoint: CC50

CCn is the concentration with n% toxicity to the cells. An empty or dashed field is not shown. Conditions beyond the fields shown may differ between rows.

structure,read by,value
CSc1nc2ccccc2c(=O)n1/N=C1\C(=O)N(CN2CCCCC2)c2ccccc21,MTT,9.1 µM
CCOCn1c(Cc2c(F)c(F)cc(F)c2F)c(CC)c(=O)[nH]c1=O,,>100 µM
COc1ccc(CSc2nc(C(=O)c3cccc(Br)c3)c(C)c(=O)[nH]2)cc1,MTT,252 µM
C=C(C)CN1C(C)C(=O)Nc2ccc(Cl)cc2S1(=O)=O,MTT,≥200 µM
CSc1nc2ccccc2c(=O)n1/N=C1\C(=O)Nc2ccccc21,MTT,56.7 µM
Cc1cc(C)cc(Sc2c(C(C)C)c(=O)[nH]c(=O)n2Cc2ccccc2C#N)c1,MTT,>100 µg/mL
C=CCN1C(C)C(=O)Nc2ccc(Cl)cc2S1(=O)=O,MTT,>200 µM
O=S(=O)(O)O.OCC(O)C(O)C(OC1OC(CO)C(O)C(OC2OC(CO)C(O)C(OC3OC(CO)C(O)C(OC4OC(CO)C(O)C(O)C4O)C3O)C2O)C1O)C(O)CO,,238 µg/mL
O=C(COc1ccc2ccccc2c1)NCc1n[nH]c(=S)n1-c1ccccc1,MTT,20.2 µg/mL
Cc1cn([C@H]2O[C@@H](CO)C[C@@H]2F)c(=O)[nH]c1=O,,>100 µM
CC1(C)Oc2ccc3cc(CC#N)c(=O)oc3c2[C@@H](OC(=O)C23CCC(C)(C(=O)O2)C3(C)C)[C@H]1OC(=O)C12CCC(C)(C(=O)O1)C2(C)C,MTT,>73.42 µM
Cc1cn([C@@H]2O[C@@H]3CN[C@@]4(OCc5ccccc5)CS(=O)(=O)O[C@@]34[C@H]2O[Si](C)(C)C(C)(C)C)c(=O)[nH]c1=O,,6.4 µM
CC1C(=O)Nc2ccc(Cl)cc2S(=O)(=O)N1CC=Cc1ccccc1,MTT,>200 µM
O=C1CN=C(COc2ccc3ccccc3c2)NN1,MTT,5.2 µg/mL
NCCCC[C@H](COC(N)=O)NC(=O)CN(CCCCN)C(=O)OC[C@@H](N)CCCNc1c(N)c(=O)c1=O,MTT,1600 µM
Cc1cn([C@@H]2O[C@@H]3CN[C@@]4(OCC(C)C)CS(=O)(=O)O[C@@]34[C@H]2O)c(=O)[nH]c1=O,,>250 µM
CCOCn1c(C(=O)C=C(C)C)c(CC)c(=O)[nH]c1=O,MTT,>100 µM
COc1cc2c(c3oc(=O)c(C)c(C)c13)[C@@H](OC(=O)C13CCC(C)(C(=O)O1)C3(C)C)[C@@H](OC(=O)C13CCC(C)(C(=O)O1)C3(C)C)C(C)(C)O2,MTT,>73.53 µM
CCOC(=O)C(C)N(CC=C(C)C)S(=O)(=O)c1cc(Cl)ccc1[N+](=O)[O-],MTT,91 µM
Cc1ccc(S(=O)(=O)Sc2nnc(CNC(=O)COc3ccc4ccccc4c3)n2-c2ccccc2)cc1,MTT,>12.7 µg/mL
CCOCn1c(C(=O)C2=CCCCC2)c(CC)c(=O)[nH]c1=O,MTT,>100 µM
CCOC(=O)C(C)N(CC)S(=O)(=O)c1cc(Cl)ccc1N,MTT,>200 µM
CCc1c(C(=O)c2cc(C)cc(C)c2)n(Cc2cc(F)ccc2F)c(=O)[nH]c1=O,MTT,>100 µg/mL
Cc1c(COC(N)=O)c(=O)oc2c3c(ccc12)OC(C)(C)[C@H](OC(=O)C12CCC(C)(C(=O)O1)C2(C)C)[C@@H]3OC(=O)C12CCC(C)(C(=O)O1)C2(C)C,MTT,44.05 µM
CCN1CCn2c(=S)[nH]c3cc(Cl)cc(c32)S1(=O)=O,MTT,>200 µM
COc1cc2c(c3oc(=O)c(CC#N)c(C)c13)[C@@H](OC(=O)C13CCC(C)(C(=O)O1)C3(C)C)[C@@H](OC(=O)C13CCC(C)(C(=O)O1)C3(C)C)C(C)(C)O2,MTT,>70.92 µM
CSc1nc2ccccc2c(=O)n1/N=C1\C(=O)N(CN(C)C)c2ccc(Cl)cc21,MTT,15.3 µM
CCc1c(Oc2cc(C)cc(C)c2)n(Cc2ccccn2)c(=O)[nH]c1=O,MTT,>100 µg/mL
CC1C(=S)Nc2ccc(Cl)cc2S(=O)(=O)N1CC=Cc1ccccc1,MTT,16 µM
CC=CC(O)c1c(CC)c(=O)[nH]c(=O)n1COCC,MTT,>100 µM
CSc1nc2ccccc2c(=O)n1/N=C1\C(=O)N(CN2CCOCC2)c2ccc(Br)cc21,MTT,9.5 µM
COCCNC(=O)c1c(O)c2ncc(Cc3ccc(F)cc3)cc2n(C)c1=O,,>20 µM
CCc1c(Oc2cc(C)cc(C)c2)n(Cc2cc(Cl)cc(Cl)c2)c(=O)[nH]c1=O,MTT,>100 µg/mL
CCOCn1c(Cc2cc(C)cc(C)c2)c(C(C)C)c(=O)[nH]c1=O,,30 µM
CSc1nc2ccccc2c(=O)n1/N=C1\C(=O)Nc2ccc(Br)cc21,MTT,7.8 µM
CCc1c(Sc2cc(C)cc(C)c2)n(Cc2cc(C(F)(F)F)cc(C(F)(F)F)c2)c(=O)[nH]c1=O,MTT,>100 µg/mL
CCCC(C(=O)O)c1c(-c2ccccc2)c2cc(Cl)ccc2n(CCC)c1=O,,64.4 µM
CC1C(=S)Nc2ccc(Cl)cc2S(=O)(=O)N1Cc1cc(Cl)cc(Cl)c1,MTT,90 µM
COc1ccc(CSc2nc(C(=O)c3ccc(Cl)cc3)c(C)c(=O)[nH]2)cc1,MTT,152 µM
CCOCn1c(Cc2cccc(F)c2)c(C(C)C)c(=O)[nH]c1=O,,>100 µM
O=C(COc1ccc2ccccc2c1)NCC(=O)NNC(=S)Nc1ccccc1,MTT,≥67.9 µg/mL
Nc1ccn([C@H]2C=C[C@@H](CO)O2)c(=O)n1,,15 µM
Cc1cn([C@@H]2O[C@@H]3CN[C@@]4(OCc5ccccc5)CS(=O)(=O)O[C@@]34[C@H]2O)c(=O)[nH]c1=O,,>250 µM
CCN1CC(=O)Nc2ccc(Cl)cc2S1(=O)=O,MTT,>200 µM
Cc1cc(C)cc(Oc2c(C(C)C)c(=O)[nH]c(=O)n2Cc2cc(F)ccc2F)c1,MTT,>100 µg/mL
C=C(C)COCn1c(Cc2c(F)c(F)cc(F)c2F)c(CC)c(=O)[nH]c1=O,,38 µM
CSc1nc2ccccc2c(=O)n1/N=C1\C(=O)N(CN(C)C)c2ccccc21,MTT,11.1 µM
Cc1ccc(-n2c(CNC(=O)COc3ccc4ccccc4c3)n[nH]c2=S)cc1,MTT,53.2 µg/mL
COc1ccc(CSc2nc(C(=O)c3cccc(F)c3)c(C)c(=O)[nH]2)cc1,MTT,>325 µM
COc1ccc(-n2c(CNC(=O)COc3ccc4ccccc4c3)n[nH]c2=S)cc1,MTT,≥46.2 µg/mL
COc1cc2c(c3oc(=O)c(CBr)c(C)c13)[C@@H](OC(=O)C13CCC(C)(C(=O)O1)C3(C)C)[C@@H](OC(=O)C13CCC(C)(C(=O)O1)C3(C)C)C(C)(C)O2,MTT,>65.88 µM
Cc1cn([C@@H]2O[C@@H]3CN[C@@]4(OCCOc5ccccc5)CS(=O)(=O)O[C@@]34[C@H]2O)c(=O)[nH]c1=O,,>250 µM
Cc1cn([C@H]2O[C@@H](CO)C[C@@H]2O)c(=O)[nH]c1=O,,>100 µM
O=S(=O)(O)O.OCC1O[C@H](O)[C@@H](O)[C@H](O)C1O,,232 µg/mL